Data from PubChem BioAssay AID602230 (The Scripps Research Institute Molecular Screening Center, 2012).
The entries are a selection whose mix differs from that of the whole data set. Activity calls are given as the source filed them. Cut-off read from the data, not from the text of the source: active = inhibition above about 16%; inactive = the rest.

By UniProt entry, the sequences of proteins in these tests, tags left out.
UniProt P0A9M0, whole entry, looked up: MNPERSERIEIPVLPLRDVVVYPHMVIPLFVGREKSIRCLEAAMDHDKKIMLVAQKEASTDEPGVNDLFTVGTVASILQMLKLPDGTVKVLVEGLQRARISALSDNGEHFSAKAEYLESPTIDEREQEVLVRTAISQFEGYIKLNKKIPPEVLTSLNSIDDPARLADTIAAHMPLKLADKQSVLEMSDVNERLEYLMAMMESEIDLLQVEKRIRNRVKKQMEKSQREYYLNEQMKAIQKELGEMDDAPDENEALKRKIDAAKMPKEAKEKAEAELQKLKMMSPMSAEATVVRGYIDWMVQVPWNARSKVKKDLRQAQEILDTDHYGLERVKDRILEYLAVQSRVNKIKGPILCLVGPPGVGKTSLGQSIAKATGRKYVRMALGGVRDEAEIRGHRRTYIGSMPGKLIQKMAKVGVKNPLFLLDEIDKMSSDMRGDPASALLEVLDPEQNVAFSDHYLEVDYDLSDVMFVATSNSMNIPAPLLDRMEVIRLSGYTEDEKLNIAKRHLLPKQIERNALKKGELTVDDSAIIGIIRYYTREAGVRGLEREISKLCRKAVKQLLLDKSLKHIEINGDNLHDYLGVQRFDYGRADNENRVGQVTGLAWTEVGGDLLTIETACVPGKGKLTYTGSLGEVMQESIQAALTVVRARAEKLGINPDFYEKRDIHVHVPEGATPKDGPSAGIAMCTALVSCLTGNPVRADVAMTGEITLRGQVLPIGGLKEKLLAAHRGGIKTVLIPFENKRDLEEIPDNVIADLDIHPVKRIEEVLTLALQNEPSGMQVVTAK

Each molecule was assayed against Lon protease (Escherichia coli (strain K12)) (UniProt P0A9M0) (assay: inhibition of eLon from E. coli – biochemical, fluorescence polarization, confirmation (AID 602230;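 note: 0% = enzyme with probe and DMSO and 100% = no enzyme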)). Conditions: purified E. coli Lon, at 7.94 µM, stronger effect = higher value.
For `Nc1cccc2c([As](=O)(O)O)cccc12`, the inhibition was active: 142%.
